Values quoted from earlier work in PubChem BioAssay AID977611.

Columns and labels:
[1] = molecular target: HIV-1 RNase H p15 with engineered E. coli loop; test: PubChem AID 977611; details: PDB protein-ligand complexes, literature Kd; protein: HIV-1 RNase H p15 with engineered E. coli loop; PDB entry 3QIN
[2] = molecular target: Epstein-Barr virus (EBV) dUTPase inactive mutant deleted of motif V; test: PubChem AID 977611; details: PDB protein-ligand complexes, literature Kd; protein: Epstein-Barr virus (EBV) dUTPase inactive mutant deleted of motif V; PDB entry 2WE3

| Structure (SMILES) | Kd [1] [µM] | Kd [2] [µM] |
| --- | --- | --- |
| COc1ccc(Cc2nc(C(=O)O)c(O)c(=O)[nH]2)cc1Br | 0.136 |  |
| O=c1ccn([C@H]2C[C@H](O)[C@@H](COP(=O)(O)OP(=O)(O)OP(=O)(O)O)O2)c(=O)[nH]1 |  | 37 |
